PubChem BioAssay AID1259414 – Drosophila RNAi Screening Center | 2018

Test: 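Genome-wide screen for host control of endosymbiont load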 (primary screen)
Cell system: Drosophila JW18 cells infected with Wolbachia
Reagents: long dsRNA against Drosophila genes, 0.25 µg dsRNA per well of a 384-well plate
Duration: 5 days
Challenge: cells persistently infected with Wolbachia before knock-down; no added drug
Measurement: 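Automated imaging of bacterial rRNA staining divided by host cell count, reported as plate-normalised robust z-score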
Scale: Wolbachia per cell robust z: higher = more Wolbachia per host cell than the plate typical
Active means: 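Active if absolute robust z reaches 1.5 in two or more of three replicates, leaving out multi- or no-target dsRNAs, genes unexpressed in JW18 and A1 wells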
In all, the deposit lists about 24,000 reagents; below is a random part of those that have a named target and a result. Over the whole deposit, about 1,210 (5%) got an active call. 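Inactive calls also include excluded dsRNAs with several or no targets, genes unexpressed in JW18, and well A1, regardless of score.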 Names joined by + are all predicted targets of the reagent.

| gene | dsRNA | Wolbachia per cell robust z, rep 1 | Wolbachia per cell robust z, rep 2 | Wolbachia per cell robust z, rep 3 | Call |
| --- | --- | --- | --- | --- | --- |
| sunn | DRSC21659 | -1.17 | -1.57 | -1.27 | inactive |
| Prosbeta2 | DRSC11257 | 1.81 | -0.699 | 1.87 | active |
| CG11112 | DRSC06038 | -1.52 | 0.334 | 1.42 | inactive |
| CG11112 | DRSC25552 | -0.693 | 0.00889 | -1.01 | inactive |
| Dcps | DRSC12299 | -2.43 | -2.92 | -0.158 | active |
| CG13185 | DRSC06310 | 0.825 | 0.681 | 0.506 | inactive |
| PIP82 | DRSC18694 | -0.933 | 0.397 | 0.203 | inactive |
| PIP82 | DRSC25335 | 0.793 | 0.584 | 1.42 | inactive |
| KdelR | DRSC03353 | 1.61 | 2.08 | 2.03 | active |
| Tpc2 | DRSC04322 | 0.213 | -0.84 | -0.446 | inactive |
| att-ORFB + DPCoAC | DRSC15556 | 0.52 | -1.05 | -1.44 | inactive |
| CG15657 | DRSC04248 | 0.674 | -5.06 | -0.513 | inactive |
| caps | DRSC11333 | -0.629 | 0.567 | 0.802 | inactive |
| caps | DRSC22224 | 0.43 | 0.662 | 0.7 | inactive |
| CG14439 | DRSC17931 | -0.601 | -0.495 | -0.238 | inactive |
| Mrgn1 | DRSC20223 | 0.606 | -1.84 | -2.16 | active |
| CG2528 | DRSC03724 | -0.634 | -0.663 | -2.4 | inactive |
| RpS28b | DRSC18258 | 1.05 | 1.03 | 9.1 | inactive |
| RpS28b | DRSC29909 | 1.96 | -4.65 | 2.36 | active |
| Kif3C | DRSC17209 | 0.216 | -0.26 | 0.73 | inactive |
| Kif3C | DRSC17210 | -0.449 | -0.194 | 0.566 | inactive |
| CG13324 | DRSC06361 | 1.54 | -1.69 | 0.43 | inactive |
| Mdr50 | DRSC07467 | 0.0643 | -1.66 | -2.44 | active |
| Mdr50 | DRSC23705 | 0.855 | -0.335 | -0.675 | inactive |
| Larp7 | DRSC18798 | 0.4 | 0.124 | -1.03 | inactive |
| Larp7 | DRSC27687 | -1.21 | -0.268 | 1.01 | inactive |
| Cpr65Av | DRSC09727 | -0.764 | -4.23 | -0.53 | inactive |
| Cpr65Av | DRSC26499 | 0.743 | -0.0027 | -0.408 | inactive |
| CG4998 | DRSC10466 | 0.447 | 1.69 | 0.719 | inactive |
| CG4998 | DRSC22911 | -0.986 | -6.17 | -0.756 | inactive |
| ci | DRSC17172 | -1.05 | -0.126 | 0.918 | inactive |
| Zip48C | DRSC06314 | 0.687 | 1.23 | 0.00201 | inactive |
| CG34331 | DRSC20679 | -0.98 | -0.804 | -0.91 | inactive |
| Hacd1 | DRSC02988 | -0.979 | -2.41 | -0.558 | inactive |
| Btnd | DRSC18316 | -0.74 | -3.68 | 0.72 | inactive |
| Btnd | DRSC24718 | -2.18 | -0.538 | 0.731 | inactive |
| Btnd | DRSC38991 | 0.0966 | -1.99 | -3.12 | inactive |
| SERCA | DRSC04600 | -2.25 | 0.375 | 0.455 | inactive |
| SERCA | DRSC26195 | 0.0647 | 0.965 | 2.37 | inactive |
| AP-1mu | DRSC14089 | -0.805 | -2.08 | -0.233 | inactive |
| AP-1mu | DRSC25744 | 1.08 | 0.172 | -0.501 | inactive |
| DCTN2-p50 | DRSC07132 | -0.403 | 0.584 | 0.906 | inactive |
| CG10336 | DRSC02037 | -0.617 | -0.576 | -0.635 | inactive |
| Gbp2 | DRSC06069 | -0.981 | -5.56 | -1.34 | inactive |
| Taf9 | DRSC20326 | 0.491 | 1.37 | -0.291 | inactive |
| Taf9 | DRSC25903 | 0.175 | 2.25 | -1.06 | inactive |
| CycC | DRSC16619 | 2.29 | -0.114 | 2.7 | active |
| caup | DRSC23050 | -0.697 | -0.582 | 0.232 | inactive |
| CG8677 | DRSC03107 | -5.94 | 0.835 | -0.377 | inactive |
| CG8677 | DRSC23559 | 0.369 | 0.831 | 2.16 | inactive |
| CG31802 | DRSC02459 | 0.133 | -1.22 | -1.35 | inactive |
| Cmpk | DRSC16643 | 1.37 | 0.652 | 0.592 | inactive |
| RpL9 | DRSC03418 | 2.7 | 3.77 | 4.25 | active |
| f-cup | DRSC14139 | -1.2 | 1.1 | -0.676 | inactive |
| f-cup | DRSC28933 | 1.2 | 2.17 | 1.11 | inactive |
| qvr | DRSC05280 | -0.164 | -0.229 | 0.728 | inactive |
| GATAe | DRSC23209 | 0.865 | 1.17 | 0.883 | inactive |
| Caf1-105 | DRSC06209 | -0.253 | 0.406 | -1.17 | inactive |
| Drep1 | DRSC07527 | -1.03 | 0.698 | -1.97 | inactive |
| CG7453 | DRSC20046 | -0.425 | -0.728 | 0.0377 | inactive |
| CG7453 | DRSC24580 | -0.622 | -3.28 | -0.634 | inactive |
| alphaTry | DRSC07577 | 0.158 | 0.126 | 0.482 | inactive |
| mv | DRSC08208 | 0.335 | 0.195 | 0.273 | inactive |
| mv | DRSC08570 | -0.0353 | 0.0326 | 0.282 | inactive |
| mv | DRSC28733 | 0.62 | 0.998 | 0.738 | inactive |
| Hasp | DRSC02022 | -0.526 | -0.975 | 0.623 | inactive |
| Cip4 | DRSC08469 | 0.656 | 1.19 | 2.15 | inactive |
| Cip4 | DRSC21740 | -2.32 | -1.5 | -1.36 | inactive |
| Elk | DRSC07608 | 0.349 | -0.52 | -0.545 | inactive |
| CG12672 | DRSC19482 | -0.428 | -0.163 | -2.46 | inactive |
| CG12672 | DRSC24282 | -6.27 | -0.338 | -1.17 | inactive |
| CG4945 | DRSC06904 | -1.47 | 0.738 | -0.825 | inactive |
| CG4945 | DRSC29644 | 0.144 | 0.292 | -0.201 | inactive |
| CG43163 | DRSC10748 | 0.159 | -1.56 | -0.704 | inactive |
| CG43163 | DRSC23670 | 1.08 | -0.143 | 1.15 | inactive |
| Cyp4c3 | DRSC16631 | -0.787 | -0.323 | -1.83 | inactive |
| Cyp4c3 | DRSC23642 | 0.723 | -0.253 | 1.08 | inactive |
| CG13700 | DRSC10049 | -2.26 | -0.419 | 0.754 | inactive |
| CG13700 | DRSC29871 | 0.301 | 0.18 | -0.619 | inactive |
| trh | DRSC08355 | -1.78 | 0.501 | 1.13 | inactive |
| trh | DRSC08739 | -1.39 | -0.499 | -2.68 | inactive |
| trh | DRSC30093 | -0.0758 | 0.976 | 0.803 | inactive |
| CG14969 | DRSC08428 | -0.395 | 0.0942 | 0.228 | inactive |
| CG16853 | DRSC01877 | 1.37 | -0.0521 | 0.392 | inactive |
| Spt-I | DRSC06860 | 0.667 | -1.69 | 0.903 | inactive |
| Spt-I | DRSC26069 | 0.564 | 0.523 | 0.599 | inactive |
| CG9590 | DRSC16506 | 0.044 | 0.612 | 0.528 | inactive |

5 of these entries in another layout.
gene | dsRNA | Wolbachia per cell robust z, rep 1 | Wolbachia per cell robust z, rep 2 | Wolbachia per cell robust z, rep 3 | Call
Cyp4c3 | DRSC16631 | -0.787 | -0.323 | -1.83 | inactive
Cyp4c3 | DRSC23642 | 0.723 | -0.253 | 1.08 | inactive
CG13700 | DRSC10049 | -2.26 | -0.419 | 0.754 | inactive
CG13700 | DRSC29871 | 0.301 | 0.18 | -0.619 | inactive
trh | DRSC08355 | -1.78 | 0.501 | 1.13 | inactive
